PubChem BioAssay AID1259414, Drosophila RNAi Screening Center, 2018

Aim: 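Host factors increasing or decreasing Wolbachia levels in cultured fly cells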 (primary screen)
Cells: Drosophila JW18 cells infected with Wolbachia
Reagents: long dsRNA against Drosophila genes, 0.25 µg dsRNA per well of a 384-well plate
Duration: 5 days
Challenge: cells persistently infected with Wolbachia before knock-down; no added drug
Detection: 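Imaged fluorescence in situ signal for Wolbachia 23S rRNA per DAPI-counted host cell, given as a robust z-score within each plate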
Scale: Wolbachia per cell robust z: higher = more Wolbachia per host cell than the plate typical
Rule for the call: 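Hit when robust z is 1.5 or more, or -1.5 or less, in at least two of three replicates; excludes dsRNAs with several or no targets, genes not expressed in JW18 and well A1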
The deposit covers about 24,000 reagents; below is an unselected part of those that have a named target and a result. In the full data, about 1,210 (5%) got an active call. 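Inactive calls also include excluded dsRNAs with several or no targets, genes unexpressed in JW18, and well A1, regardless of score.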 Entries without a mark were called inactive. Names joined by + are all predicted targets of the reagent.

The opening 6 records, ahead of the listing:
gene	dsRNA	Wolbachia per cell robust z, rep 1	Wolbachia per cell robust z, rep 2	Wolbachia per cell robust z, rep 3
MrgBP	DRSC06417	-1.97	-1.55	-2.72
MrgBP	DRSC29948	-0.743	-0.0982	0.339
Acp26Aa	DRSC01855	0.0326	-0.468	-4.6
Acp26Aa	DRSC40671	0.917	0.34	1.14
Lip4	DRSC02930	0.92	-1.36	0.0643
CG34286	DRSC21790	-2.24	0.0766	-0.335

Results, from the start:
gene	dsRNA	Wolbachia per cell robust z, rep 1	Wolbachia per cell robust z, rep 2	Wolbachia per cell robust z, rep 3
MrgBP	DRSC06417	-1.97	-1.55	-2.72
MrgBP	DRSC29948	-0.743	-0.0982	0.339
Acp26Aa	DRSC01855	0.0326	-0.468	-4.6
Acp26Aa	DRSC40671	0.917	0.34	1.14
Lip4	DRSC02930	0.92	-1.36	0.0643
CG34286	DRSC21790	-2.24	0.0766	-0.335
CG10731 + sotv	DRSC05930	-0.286	-5.16	-0.0228
Mlc-c	DRSC18683	0.405	0.884	-5.86
Mlc-c	DRSC26543	-2.43	-0.811	-0.776
CG17754	DRSC18131	0.0189	-0.289	1.56
Gr64c + Gr64b	DRSC08444	0.458	0.0326	-3.06
Gr64c + Gr64b	DRSC08445	-1.05	0.649	-4.49
CG30100 + CG42372	DRSC05602	-0.302	1.34	-10.8
CG30100 + CG42372	DRSC30025	0.197	-0.535	0.117
sina	DRSC41298	0.808	1.2	-2.28
Syx4	DRSC18586	-3.65	-0.906	-4.57
Syx4	DRSC27586	1.31	-0.678	-4.84
CG33332 + CG33331	DRSC29492	0.833	-0.674	0.0775
Marf	DRSC18329	-1.01	-2.64	-0.0502
Marf	DRSC28101	-1.04	0.28	0.65
CG7381	DRSC16238	-0.98	-0.371	-0.391
CG7381	DRSC29012	0.244	1.2	-0.255
ATPsynF	DRSC04482	0.506	-0.0126	-0.44
CG4230	DRSC02740	-0.0582	-0.725	-0.362
HP1c	DRSC16166	-3.86	0.313	-0.545
HP1c	DRSC28423	-0.0631	0.554	-0.44
CG14631	DRSC17792	0.522	-4.1	0.238
CG14631	DRSC17941	-1.36	-2.2	-0.813
CG17637	DRSC11740	-4.03	-0.168	-0.494
Cpr56F	DRSC07326	-1.73	0.0971	0.416
Cpr56F	DRSC24002	-0.549	0.951	-0.168
Cul2	DRSC03710	0.0998	0.23	0.422
LSm-4 + CG17768	DRSC02845	-1.18	0.264	-4.59
Hph	DRSC12164	-0.518	-0.553	-1.65
Hph	DRSC12251	0.272	0.94	-0.503
Hph	DRSC21876	0.243	0.547	1.3
Hph	DRSC24780	0.264	1.9	0.752
Hph	DRSC25979	-1.49	0.219	0.288
CG34180	DRSC38745	-1.59 (active)	-0.709	-1.58
Trs31	DRSC05975	-3.03 (active)	-0.484	-1.75
inaD	DRSC04694	-5.39 (active)	-4.78	-1.01
inaD	DRSC27116	0.845	0.618	-2.34
Spn43Ab	DRSC06781	-0.315	-2.77	0.123
Spn43Ab	DRSC28317	-1.15	-1.32	-0.642
CG17290	DRSC06662	0.156	-1.69	0.38
CG17290	DRSC27119	0.726	-0.348	-2.85
Theg	DRSC16023	-0.0114	-0.0249	-0.663
CG31496	DRSC12547	-2.01	0.355	0.799
CG31496	DRSC27899	-0.258	1.55	1.25
Tmem18 + DUBAI	DRSC05344	-0.666	-0.488	-1.51
CG2209	DRSC19843	-1.16	-1.17	0.586
eIF3b	DRSC06900	2.23	1.34	1.04
Gbs-76A	DRSC11081	-0.283	-0.128	0.328
CG4842	DRSC10453	-0.197	0.0309	-0.136
CG16787	DRSC04282	-5.51 (active)	0.282	-6.16
Nipped-B	DRSC07815	1.48	1.49	1.31
Nipped-B	DRSC29151	1.02 (active)	3.33	5.32
CG33223	DRSC17572	-0.334	-0.696	-0.865
CG33223	DRSC26875	-0.245	0.722	-0.48
CG15196	DRSC19643	0.776	-0.704	-0.831
CG15196	DRSC24591	0.437	0.7	0.505
CG13287	DRSC09961	0.378	-1.21	0.241
CG13287	DRSC26934	0.327	1.22	0.581
Wnt2	DRSC05160	-0.00486	1.07	1.54
Wnt2	DRSC07574	0.0846	-0.325	1.11
RluA-2	DRSC02939	0.449	0.232	0.996
lncRNA:CR32690	DRSC22219	0.481	0.444	0.387
lncRNA:CR32690	DRSC27561	-0.446	-0.85	-0.233
CR40100	DRSC38722	0.406	-1.83	0.14
amn + Hers	DRSC20306	-1.11	-0.333	-0.531
PMP34	DRSC21939	-0.279	-0.298	-1.51
CG3216	DRSC04347	1.9 (active)	0.955	1.86
CG3216	DRSC24945	-0.468	-0.633	0.0854
Sfp33A4	DRSC41431	1.11	-2.15	-1.34
CG7202	DRSC11818	-0.38	-0.904	-1.78
CG7202	DRSC25884	-0.604	-0.43	-0.0114
CG33140	DRSC06030	-6.43	-0.265	0.772
CG33140	DRSC26717	0.413	0.844	0.995
Son	DRSC16400	0.437	-1.07	0.21
Pus7	DRSC10703	0.772	-0.911	-0.472
Pus7	DRSC27484	1.08	-0.634	0.887
CG11808	DRSC06088	0.279	-0.433	-2.39
CG11808	DRSC27380	-5.72	1.19	0.0876
TyrR	DRSC16242	-0.178	-0.718	-0.216
CG30033	DRSC24832	-0.246	-1.07	-0.484
Cpr30B	DRSC02728	-0.552	-11	0.623
Cpr30B	DRSC25204	0.789	1.22	-2.37
